Compound potency records, mixed from different reports. Data source: NIAID ChemDB in PubChem.

All rows: tests in culture; organism: Candida albicans

ECn: concentration that inhibits the pathogen or its effect by n%. Lines come from different laboratories, so protocols vary. MIC50, MIC90 and the like: level of inhibition, or share of isolates inhibited. Blank or dashed fields: not listed here. Inhibition is in % at the dose shown (toxicity tests: loss of growth or viability).

structure	strain or isolate	method	setting	read-out	tested at	value
CC(C)(O)c1cn(-c2ccc([N+](=O)[O-])cc2)nn1	URM 4125	broth dilution		inhibition	2048 µg/mL	0%
O=C(Nc1ccccc1Cn1ccnc1)c1ccc(Br)cc1	27 strains			Mean MIC		156 µg/mL
OC(CN1CCN(c2ccc(OCc3ccncc3)cc2)CC1)(Cn1cncn1)c1ccc(F)cc1F	304046			MIC80		≤0.063 µg/mL
CCC(C)n1ncn(-c2ccc(N3CCN(c4ccc(OC[C@H]5CO[C@](Cn6cncn6)(c6ccc(Cl)cc6Cl)O5)cc4)CC3)cc2)c1=O	Fluconazole-resistant 4 isolates pooled			MFC90		>8 µg/mL
COc1ccc(-c2c3c(N)c4c(nc3nc3c2c(C)nn3-c2ccccc2)CCCC4)cc1	ATCC 10231	broth dilution / absorbance		MIC80		125 µg/mL
C[C@@H](c1ncncc1F)[C@](O)(Cn1cncn1)c1ccc(F)cc1F	15 isolates	broth dilution	pH 6	EC90		0.03 µg/mL
O=C(Nc1ccc(Cn2ccnc2)cc1)c1cccc(Cl)c1	27 strains			Mean MIC		101 µg/mL
NC(=NC1CCCC1)c1ccc(-c2ccc(-c3ccc(C(N)=NC4CCCC4)cc3)o2)cc1	Isolate CA2256 fluconazole-resistant			MFC		50 µg/mL
CC(C)[C@]1(O)CC[C@]2(C)C=C[C@@](C)(O)C[C@H](OCC(=O)c3ccc(O)cc3)[C@H]21		broth dilution		EC90		>50 µg/mL
Oc1ccc2cc1Oc1ccc(cc1)CCc1ccc(c(O)c1)-c1c(O)cccc1CC2	BWP17-DPP3-GFP	broth dilution		MIC80		16 µg/mL
c1ccc(C(c2nccc3ccccc23)n2ccnc2)cc1	44 strains			Mean MIC		76 µg/mL
C[C@H]1[C@H](O)[C@@H](C)/C=C/C=C/C=C/C=C/C=C/C=C/C=C/[C@H](O[C@@H]2O[C@H](C)[C@@H](O)[C@H](N)[C@@H]2O)C[C@@H]2O[C@](O)(C[C@@H](O)C[C@@H](O)CC[C@H](O)[C@@H](O)C[C@@H](O)CC(=O)O[C@H]1C)C[C@H](O)[C@H]2C(=O)O	A28200			MFC99		0.5 µg/mL
C[C@@H](N1CCN(Cc2cn(-c3ccc(F)cc3)c3cc(Cl)ccc23)CC1)[C@](O)(Cn1cncn1)c1ccc(F)cc1F	ATCC 90028	resazurin		MIC80		0.125 µg/mL
CC1=CC[C@@]2(C)CC[C@@](O)(C(C)C)[C@@H]2[C@@H](OCC(=O)c2ccc(O)cc2)C1		broth dilution		EC90		>50 µg/mL
COc1ccc(C(Cc2cccc(F)c2)n2ccnc2)cc1	34 strains			Geometric mean MIC		151.2 µg/mL
C[C@@H](N1CCN(Cc2cn(Cc3ccc(C(F)(F)F)cc3)c3c(F)cccc23)CC1)[C@](O)(Cn1cncn1)c1ccc(F)cc1F	ATCC 64548	resazurin		MIC80		0.125 µg/mL
CCCCCOc1ccc(-c2ccc(-c3ccc(C(=O)N[C@H]4C[C@@H](O)[C@@H](O)NC(=O)[C@@H]5[C@@H](O)[C@@H](C)CN5C(=O)[C@H]([C@H](C)O)NC(=O)[C@H]([C@H](O)[C@@H](O)c5ccc(O)cc5)NC(=O)[C@@H]5C[C@@H](O)CN5C(=O)[C@H]([C@H](C)O)NC4=O)cc3)cc2)cc1	10 strains (fluconazole- itraconazole-susceptible)			MFC90		0.5 µg/mL
COC(=O)[C@H]1[C@@H]2C[C@@H](O[C@@H]3O[C@H](C)[C@@H](O)[C@H](N)[C@@H]3O)/C=C/C=C/C=C/C=C/C=C/C=C/C=C/[C@H](C)[C@@H](O)[C@H](C)[C@H](C)OC(=O)C[C@H](O)C[C@H](O)[C@@H](O)CC[C@H](O)C[C@H](O)C[C@](O)(C[C@@H]1O)O2	10 isolates	broth dilution	pH 7	EC90		1 µg/mL
Cc1ccc(-n2cc(C(C)(C)O)nn2)cc1C	URM 4609	broth dilution		inhibition	2048 µg/mL	0%
Fc1ccccc1COc1ccc(C(c2ccc3ccccc3c2)n2ccnc2)cc1	16 strains			MIC90		128 µg/mL
NCCCC[C@H](NC(=O)[C@@H](N)CCCCN)C(=O)N[C@@H](CCC(N)=O)C(=O)N[C@@H](CCCN=C(N)N)C(=O)O	ATCC 10231			inhibition	25 µM	0%
Fc1cccc(C(c2nccc3ccccc23)n2ccnc2)c1.O=[N+]([O-])O	44 strains			MIC90		256 µg/mL
CCC(C)c1ccc(Cn2cc(CN3CCN([C@H](C)[C@](O)(Cn4cncn4)c4ccc(F)cc4F)CC3)c3ccccc32)cc1	ATCC 64548	resazurin		MIC80		0.125 µg/mL
COc1cc(C(=O)Nc2ccc(Cn3ccnc3)cc2)cc(OC)c1OC	27 strains			Mean MIC		200 µg/mL
Clc1ccc(COc2ccc(C(c3ccc4ccccc4c3)n3ccnc3)cc2)cc1.O=[N+]([O-])O	16 strains			MIC90		≥256 µg/mL
COc1ccc(C(Cc2ccccc2[N+](=O)[O-])n2ccnc2)cc1	34 strains			Geometric mean MIC		296 µg/mL
C[C@@H](N1CCN(Cc2cn(Cc3ccc(Cl)cc3)c3ccccc23)CC1)[C@](O)(Cn1cncn1)c1ccc(F)cc1F	ATCC 36082	resazurin		MIC80		0.25 µg/mL
CCC(C)n1ncn(-c2ccc(N3CCN(c4ccc(OC[C@H]5CO[C@](Cn6cncn6)(c6ccc(Cl)cc6Cl)O5)cc4)CC3)cc2)c1=O	30 isolates			Geometric mean MIC		0.22 µg/mL
Clc1ccccc1C(c1ccccc1)(c1ccccc1)n1ccnc1	10 isolates	broth dilution	pH 5	EC90		0.25 µg/mL
Cc1ccc(-c2c3c(N)c4c(nc3nc3c2c(C)nn3-c2ccccc2)CCC4)cc1	CCC 129	broth dilution / absorbance		MIC100		125 µg/mL
O=C(Nc1cccc(Cn2ccnc2)c1)c1cccc(Cl)c1	27 strains			Mean MIC		167 µg/mL
COc1ccc(C(Cc2ccccc2-n2cccc2)n2ccnc2)cc1	34 strains			Geometric mean MIC		19.85 µg/mL
CC(C)(O)c1cn(-c2ccc3ccccc3c2)nn1	URM 4260	broth dilution		inhibition	2048 µg/mL	0%
C[C@@H](N1CCN(Cc2cn(Cc3ccc(Cl)cc3Cl)c3c(Cl)cccc23)CC1)[C@](O)(Cn1cncn1)c1ccc(F)cc1F	ATCC 36082	resazurin		MIC80		0.125 µg/mL
O=C(Nc1cccc(Cn2ccnc2)c1)c1ccc(Br)cc1	27 strains			Mean MIC		100 µg/mL
COc1ccc(C(Cc2c(Cl)cccc2Cl)n2ccnc2)cc1	34 strains			Geometric mean MIC		22.38 µg/mL
CC(C)[C@]1(O)CC[C@]2(C)C[C@@H]3O[C@]3(C)C[C@H](OCC(=O)c3ccccc3)[C@H]21		broth dilution		EC90		>50 µg/mL
Cc1nn(-c2ccccc2)c2nc3nc4c(c(N)c3c(-c3ccc(Cl)cc3)c12)CCCC4	ATCC 10231	broth dilution / absorbance		MIC80		125 µg/mL
COc1ccc(C(Cc2ccc(N)cc2)n2ccnc2)cc1	34 strains			Geometric mean MIC		2.98 µg/mL
Cc1ccc(-c2c3c(N)c4c(nc3nc3c2c(C)nn3-c2ccccc2)CCCCC4)cc1	CCC 126	broth dilution / absorbance		MIC100		125 µg/mL
Clc1ccc(CNc2cccc(Cn3ccnc3)c2)c(Cl)c1	27 strains			Mean MIC		157 µg/mL
COc1ccc(C(Cc2ccccc2N)n2ccnc2)cc1	34 strains			Geometric mean MIC		55.23 µg/mL
O=C(Nc1cccc(Cn2ccnc2)c1)c1ccc(F)cc1	27 strains			Mean MIC		133 µg/mL
C[C@@H](N1CCN(Cc2c[nH]c3ccccc23)CC1)[C@](O)(Cn1cncn1)c1ccc(F)cc1F	ATCC 36082	resazurin		MIC80		0.5 µg/mL
CC(C)(O)c1cn(-c2cccc3ccccc23)nn1	URM 4987	broth dilution		inhibition	2048 µg/mL	0%
COc1ccc(-c2oc3ccc(C)cc3c2C(=O)c2cccc(OC)c2OC)cc1		broth dilution		EC80		>200 µg/mL
Cc1ccc(C(C)C)c(O)c1	H37			MLC		0.32 µg/mL
Clc1ccccc1COc1ccc(C(c2nccc3ccccc23)n2ccnc2)cc1.O=[N+]([O-])O	17 strains			Mean MIC		≥256 µg/mL
COc1ccc(-c2oc3ccc(C)cc3c2C(=O)c2ccc(O)c(C)c2)cc1		broth dilution		EC80		>200 µg/mL
C[C@@H](N1CCN(Cc2cn(Cc3ccc(Cl)cc3Cl)c3ccc(C#N)cc23)CC1)[C@](O)(Cn1cncn1)c1ccc(F)cc1F	ATCC MYA-1003	resazurin		MIC80		>128 µg/mL
CC1=CC[C@@]2(C)CC[C@@](O)(C(C)C)[C@@H]2[C@@H](OCC(=O)c2ccccc2)C1		broth dilution		EC90		>50 µg/mL
O=[N+]([O-])c1cccc(CNc2cccc(Cn3ccnc3)c2)c1	27 strains			Mean MIC		112.5 µg/mL
C=CCc1ccc(O)c(OC)c1	2261	turbidity		MIC90		500 µg/mL
COc1ccc(C(Cc2ccccc2Cl)n2ccnc2)cc1	34 strains			Geometric mean MIC		198.1 µg/mL
Fc1ccc(COc2ccc(C(c3cccc4ccccc34)n3ccnc3)cc2)cc1.O=[N+]([O-])O	17 strains			Mean MIC		≥256 µg/mL
Nc1[nH]c(=O)ncc1F	10 isolates	broth dilution	pH 6	EC90		2 µg/mL
COc1ccc(-c2oc3ccc(C)cc3c2C(=O)c2cc(OC)c(OC)c(OC)c2)cc1		broth dilution		EC80		>200 µg/mL
CC1(C)O[C@H]2[C@H](O)[C@@H](N=[N+]=[N-])C=C(c3ccc(C=O)cc3)[C@H]2O1	ATCC 10231	broth dilution / turbidity		inhibition	62.5 µg/mL	89.76%
Clc1ccc(COc2ccc(C(c3ccc(-c4ccccc4)cc3)n3ccnc3)cc2)cc1.O=[N+]([O-])O	17 strains			MIC90		≥256 µg/mL

A second listing of 3 rows from above:

| structure | strain or isolate | method | setting | read-out | tested at | value |
|---|---|---|---|---|---|---|
| Cc1nn(-c2ccccc2)c2nc3nc4c(c(N)c3c(-c3ccc(Cl)cc3)c12)CCCC4 | ATCC 10231 | broth dilution / absorbance |  | MIC80 |  | 125 µg/mL |
| Cc1ccc(C(C)C)c(O)c1 | H37 |  |  | MLC |  | 0.32 µg/mL |
| COc1ccc(-c2oc3ccc(C)cc3c2C(=O)c2cc(OC)c(OC)c(OC)c2)cc1 |  | broth dilution |  | EC80 |  | >200 µg/mL |